This assay addresses CtHtrA (Chlamydia trachomatis serovar D, UniProt P18584). Description: Protease assay and kinetic analysis with pNA-labelled peptide substrates. Format: biochemical. The protocol:
A series of peptide substrates were then designed based on the cleavage sites previously identified in ß-casein [3], PICS results, previously published substrates for E. coli DegP [22], and the REPLi library screening results. These peptides were assayed against CtHtrA and kinetic analysis was conducted (Table 2). The ‘best’ CtHtrA substrate was MFKLI-pNA (Kcat/Km = 1084.8). […] Generally, peptides with only 4 residues or less were not cleaved. FKLI-pNA was the only four residue peptide that was cleavable by CtHtrA. The preference for K at P3 implies a salt bridge may be involved in substrate coordination in the CtHtrA active site in the substrate pocket or subsite S3. In a direct comparison between MFRLI-pNA and MFQLI-pNA, R was clearly the most preferred. […] The Km for each of these, however, was at least an order of magnitude higher than the Km for MFKLI-pNa. The results from individually synthesised peptides (Table 2) and the peptides sourced from the REPLi library (Table 1) were consistent in that non-polar sequences are most preferred. MCA-IRRVSYSF-DNP, a peptide based on the optimal activity for human HtrA2 [23] was not a viable substrate for CtHtrA (data not shown). […] (Fig. S3).
The purified recombinant protein was examined by Coomassie stained polyacrylamide gels and activity was checked using ß-casein cleavage assays prior to use in peptide assays. Briefly, this involved incubating 2 µg of the protease with 10 µg of ß-casein in 50 mM Tris pH 7.0, 20 mM MgCl2 for 2 h prior to examining the assays by SDS PAGE (ß-casein and protease only controls were always conducted). Protease assays using peptides were conducted using custom synthesised peptides (Mimotopes). The peptides were purified to 95% purity (or greater) and were typically resuspended in 50% isopropanol, although some peptides required 100% DMSO. Protease assays using pNA labelled peptides were conducted using the xMARK Microplate spectrophotometer (Bio-Rad) at 405 nm, incubated at 37°C, with a reading taken every 10 s for 30 min. The maximum slope over a minimum of 8 readings was used for the data analysis. Other peptides were labelled with 7-methoxycoumarin-4-acetic acid (MCA, fluorophore) and 2,4-dinitrophenyl (DNP, quencher). The protease assays using these peptides were conducted in black plates at 37°C using the POLARstar Optima (BMG Labtech). The assays were excited at 340 nm and emission was detected at 405 nm with a gain of 1000, the assays were monitored every 20 s or at the minimum cycle time for up to 40 min. […] The assay results shown for the fluorescent compounds have been normalised for the amount of fluorescent emission detected using a standard curve of known concentrations of the MCA fluorophore under the identical assay conditions. […]

Sequences of proteins named here, by UniProt entry; tags and fusion partners are left off. Residues count along the entry.
UniProt P18584, 17-497 limits assumed: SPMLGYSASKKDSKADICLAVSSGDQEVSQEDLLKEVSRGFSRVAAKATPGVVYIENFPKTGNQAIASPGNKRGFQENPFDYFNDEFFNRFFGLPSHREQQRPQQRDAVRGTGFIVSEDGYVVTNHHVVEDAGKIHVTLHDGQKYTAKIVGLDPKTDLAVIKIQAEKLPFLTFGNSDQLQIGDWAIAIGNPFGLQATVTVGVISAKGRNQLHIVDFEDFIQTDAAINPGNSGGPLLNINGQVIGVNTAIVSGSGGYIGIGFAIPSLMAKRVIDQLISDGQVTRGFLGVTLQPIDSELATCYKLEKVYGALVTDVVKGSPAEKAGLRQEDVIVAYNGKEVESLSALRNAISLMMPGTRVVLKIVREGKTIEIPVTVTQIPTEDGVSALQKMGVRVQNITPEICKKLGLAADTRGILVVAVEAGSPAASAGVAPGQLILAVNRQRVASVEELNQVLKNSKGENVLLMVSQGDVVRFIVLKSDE

Where [1] appears, read: pNA peptide as substrate, absorbance 405 nm, 37°C.

Each structure is given as a SMILES string. Structures were worked out from names or drawings and are uncertain.

The record followed here is article PMC3169616, “Unique Residues Involved in Activation of the Multitasking Protease/Chaperone HtrA from Chlamydia trachomatis” (PLoS ONE, 2011).

A word on the Km: it is the concentration of substrate that gives half-maximal velocity.

In the case of `CC[C@H](C)[C@H](NC(=O)[C@H](CC(C)C)NC(=O)[C@H](CCCCN)NC(=O)[C@@H](N)Cc1ccccc1)C(=O)Nc1ccc([N+](=O)[O-])cc1`, under setting [1], the Kcat/Km turned out to be 28.2 M⁻¹ s⁻¹ and the Km came to 574 µM. Besides, the Vmax (pNA peptide as substrate, absorbance 405 nm, 37°C, reading every 10 s for 30 min) was 0.9723 mM sec^−1, µM CtHtrA^−1. Where the note is “peptides of four residues or less”, the “cleavage of pNA peptide by CtHtrA (in words)” value is “cleavable by CtHtrA”.
